Pooled drug test results. Numbers come from NIAID ChemDB, via PubChem.

Common to all: enzyme or target tests; organism: HIV-1; target: Reverse transcriptase; read-out: fold resistance

Lines come from different laboratories, so protocols vary.

CCN1c2ncc(CCOc3cccc4c3ccc[n+]4[O-])cc2C(=O)Nc2c(C)cc(Cl)nc21 ; mutations: RT-K103N L100I ; read by: nucleotide incorporation / radiometric ; value: 3.8
CCN1c2nc(Cl)ccc2NC(=O)c2cc(CCc3cccc(NS(C)(=O)=O)c3)cnc21 ; mutations: RT-Y181C ; read by: nucleotide incorporation / radiometric ; value: 0.84
CCOC(=O)C(=O)CC(=O)/C=C/c1cccn1Cc1ccccc1Cl ; mutations: Q475A ; read by: RNase H / radiometric ; value: 12.3
NS(=O)(=O)c1ccc(NC(=O)CSc2nnc(Br)n2-c2ccc(C3CC3)cc2)c(Cl)c1 ; mutations: RT-Y188L ; read by: nucleotide incorporation / radiometric ; value: >2
Cc1cc(C)cc(S(=O)(=O)c2c(C(N)=O)[nH]c3ccc(Cl)cc23)c1 ; mutations: RT-Y181I ; read by: nucleotide incorporation / radiometric ; value: 46.6
NS(=O)(=O)c1ccc(NC(=O)CSc2nnc(Br)n2-c2ccc(C3CC3)c3c2CCCC3)c(Cl)c1 ; mutations: RT-Y188L ; read by: nucleotide incorporation / radiometric ; value: >2
CCN1c2ncc(CCOc3ccc(C(=O)O)cc3C)cc2-c2nccn2-c2cccnc21 ; mutations: RT-K103N Y181C ; read by: nucleotide incorporation / radiometric ; value: >2
CC[C@H](C)[C@H](NC(=O)c1ccc(NC(=O)CSc2nnc(Br)n2-c2ccc(C3CC3)c3ccccc23)c(Cl)c1)C(=O)O ; mutations: RT-Y188L ; read by: nucleotide incorporation / radiometric ; value: >1
CCN1c2ncc(CCOc3cccc4c3CC(=O)N4)cc2C(=O)N(C)c2cccnc21 ; strain or isolate: IIIB ; mutations: RT-K103N Y181C ; read by: nucleotide incorporation / radiometric ; value: >1
CCN1c2ncc(CCOc3cccc4c3CS(=O)(=O)N4)cc2-c2nccn2-c2c(C)ccnc21 ; mutations: RT-K103N Y181C ; read by: nucleotide incorporation / radiometric ; value: >1
Cc1cc(C)cc(S(=O)(=O)c2c(C(=O)NCCO)[nH]c3ccc(Cl)cc23)c1 ; mutations: RT-V179D ; read by: nucleotide incorporation / radiometric ; value: >8000
CCN1c2ncc(CCOc3cccc4c3CCNC4=O)cc2C(=O)Nc2c(C)ccnc21 ; strain or isolate: IIIB ; mutations: RT-K103N Y181C ; read by: nucleotide incorporation / radiometric ; value: >2
Nc1ccn([C@H]2CC[C@@H](COP(=O)(O)OP(=O)(O)OP(=O)(O)O)O2)c(=O)n1 ; mutations: RT-K65R ; read by: nucleotide incorporation ; value: 3.5
CCc1ccc(-n2c(CF)nnc2SCC(=O)Nc2ccc(C(=O)O)cc2Cl)c2ccccc12 ; mutations: RT-Y188L ; read by: nucleotide incorporation / radiometric ; value: >2
CC(C)=CCOc1cc(NC(=S)c2ccsc2C)ccc1Cl ; mutations: RT-L74V ; value: 1
CCc1ccc(-n2c(CF)nnc2SCC(=O)Nc2ccc(S(=O)(=O)NC)cc2Cl)c2ccccc12 ; mutations: RT-Y188L ; read by: nucleotide incorporation / radiometric ; value: >1
CCN1c2ncc(CCOc3ccc(C(=O)O)c4c3CCCC4)cc2-c2ncc(C)n2-c2cccnc21 ; mutations: RT-K103N Y181C ; read by: nucleotide incorporation / radiometric ; value: >2
CCN1c2ncc(C3(c4ccccc4)CO3)cc2C(=O)N(C)c2ccc(Cl)nc21 ; mutations: RT-Y181C ; read by: nucleotide incorporation / radiometric ; value: 1
CC(C)=CCOc1cc(NC(=S)c2ccoc2C)ccc1Cl ; mutations: RT-K103N ; value: 6.97
CCN1c2ncc(CCc3ccc(N(C)S(C)(=O)=O)cc3)cc2C(=O)N(C)c2ccc(Cl)nc21 ; mutations: RT-Y181C ; read by: nucleotide incorporation / radiometric ; value: 0.86
CCN1c2ncc(CCOc3cccc4c3CNC(=O)O4)cc2C(=O)N(C)c2cccnc21 ; strain or isolate: IIIB ; mutations: RT-K103N Y181C ; read by: nucleotide incorporation / radiometric ; value: 1
Cc1ccc(-n2c(C)nnc2SCC(=O)Nc2ccc(S(N)(=O)=O)cc2Cl)c2c1CCCC2 ; mutations: RT-Y188L ; read by: nucleotide incorporation / radiometric ; value: >2
CCN1c2ncc(CCOc3ccc4c(c3)CN(C)C(=O)N4C)cc2C(=O)N(C)c2cccnc21 ; strain or isolate: IIIB ; mutations: RT-K103N Y181C ; read by: nucleotide incorporation / radiometric ; value: >2
Cc1cc(C2CC2)cc(Cl)c1-n1c(Br)nnc1SCC(=O)Nc1ccc(C(=O)O)cc1Cl ; mutations: RT-Y188L ; read by: nucleotide incorporation / radiometric ; value: >2
NC(=O)c1[nH]c2ccc(Cl)cc2c1S(=O)(=O)c1ccccc1 ; mutations: RT-V106A ; read by: nucleotide incorporation / radiometric ; value: 75
O=C(CSc1nnnn1-c1ccccc1C(F)F)Nc1ccccc1[N+](=O)[O-] ; mutations: RT-K103N Y181C ; read by: fluorescence ; value: ≥1.33
CCCc1cc(=O)oc2c3c(c4c(c12)OC(C)(C)C=C4)O[C@H](C)C[C@@H]3O ; mutations: RT-G138A ; read by: nucleotide incorporation / radiometric ; value: 2.1
CCN1c2ncc(CCOc3cccc4c3CN(O)C4=O)cc2C(=O)N(C)c2cccnc21 ; strain or isolate: IIIB ; mutations: RT-K103N Y181C ; read by: nucleotide incorporation / radiometric ; value: >1
CCN(CC)c1ccc(-n2nnnc2SCC(=O)Nc2ccc(S(N)(=O)=O)cc2C)c(Cl)c1 ; mutations: RT-K103N Y181C ; read by: fluorescence ; value: ≥1.33
CCc1ccc(-n2c(SCC(=O)Nc3ccc(C(=O)O)cc3Cl)nnc2C(F)F)c2ccccc12 ; mutations: RT-Y188L ; read by: nucleotide incorporation / radiometric ; value: >2
CCc1cc(CCc2nc3ccccc3o2)c(=O)[nH]c1C ; mutations: RT-Y188F ; read by: nucleotide incorporation ; value: 0.7
O=C(O)CCNC(=O)c1ccc(NC(=O)CSc2nnc(Br)n2-c2ccc(C3CC3)c3ccccc23)c(Cl)c1 ; mutations: RT-Y188L ; read by: nucleotide incorporation / radiometric ; value: >2
CCN1c2ncc(CCOc3cccc4c3CNC(=O)N4)cc2-c2nc(C)cn2-c2cccnc21 ; mutations: RT-K103N Y181C ; read by: nucleotide incorporation / radiometric ; value: >2
CCc1ccc(-n2c(I)nnc2SCC(=O)Nc2ccc(S(N)(=O)=O)cc2Cl)c2ccccc12 ; mutations: RT-Y188L ; read by: nucleotide incorporation / radiometric ; value: >2
CCOC(=O)c1c(C(C)C)c(C#N)c(=N)n2ccccc12 ; mutations: RT-Y188L ; value: 0.977
Cc1cc(S(=O)(=O)O)ccc1NC(=O)CSc1nnc(C(F)F)n1-c1ccc(C)c2c1CCCC2 ; mutations: RT-Y181C ; read by: nucleotide incorporation / radiometric ; value: >2
Cc1cc(C)c(-n2nnnc2SCC(=O)Nc2ccc3c(c2)OCO3)c(C)c1 ; mutations: RT-K103N Y181C ; read by: fluorescence ; value: >2
O=C(CSc1nnc(Br)n1-c1ccc(C2CC2)cc1OC(F)(F)F)Nc1ccc(S(=O)(=O)O)cc1Cl ; mutations: RT-Y181C ; read by: nucleotide incorporation / radiometric ; value: >1
CCN1c2ncc(CCOc3cccc4c3CNC4=O)cc2-c2ncc(C)n2-c2cccnc21 ; mutations: RT-K103N Y181C ; read by: nucleotide incorporation / radiometric ; value: >2
Cc1ccc(-n2c(SCC(=O)Nc3ccc(S(=O)(=O)NCCN4CCOCC4)cc3Cl)nnc2C(F)F)c2c1CCCC2 ; mutations: RT-Y188L ; read by: nucleotide incorporation / radiometric ; value: >2
O=P(O)(O)OP(=O)(O)O ; mutations: RT-Q151E ; read by: nucleotide incorporation / radiometric ; value: 3.5
NS(=O)(=O)c1ccc(NC(=O)CSc2nnc(Br)n2-c2ccc3c4c(cccc24)CC3)c(Cl)c1 ; mutations: RT-Y188L ; read by: nucleotide incorporation / radiometric ; value: >1
CCN1c2ncc(CCOc3cccc4c3CS(=O)(=O)N4CC(=O)OC(C)(C)C)cc2-c2nccn2-c2c(C)ccnc21 ; mutations: RT-K103N Y181C ; read by: nucleotide incorporation / radiometric ; value: >1
CCN1c2ncc(CCOc3cccc4c3C(C)(C)OC(=O)N4)cc2C(=O)N(C)c2cccnc21 ; strain or isolate: IIIB ; mutations: RT-K103N Y181C ; read by: nucleotide incorporation / radiometric ; value: >1
O=C(CSc1nnc(Br)n1-c1c(Cl)cc(C2CCC2)c2ccccc12)Nc1ccc(C(=O)O)cc1Cl ; mutations: RT-Y188L ; read by: nucleotide incorporation / radiometric ; value: >1

The first 7 rows once more:

smiles	strain or isolate	mutations	read by	value
CCN1c2ncc(CCOc3cccc4c3ccc[n+]4[O-])cc2C(=O)Nc2c(C)cc(Cl)nc21	-	RT-K103N L100I	nucleotide incorporation / radiometric	3.8
CCN1c2nc(Cl)ccc2NC(=O)c2cc(CCc3cccc(NS(C)(=O)=O)c3)cnc21	-	RT-Y181C	nucleotide incorporation / radiometric	0.84
CCOC(=O)C(=O)CC(=O)/C=C/c1cccn1Cc1ccccc1Cl	-	Q475A	RNase H / radiometric	12.3
NS(=O)(=O)c1ccc(NC(=O)CSc2nnc(Br)n2-c2ccc(C3CC3)cc2)c(Cl)c1	-	RT-Y188L	nucleotide incorporation / radiometric	>2
Cc1cc(C)cc(S(=O)(=O)c2c(C(N)=O)[nH]c3ccc(Cl)cc23)c1	-	RT-Y181I	nucleotide incorporation / radiometric	46.6
NS(=O)(=O)c1ccc(NC(=O)CSc2nnc(Br)n2-c2ccc(C3CC3)c3c2CCCC3)c(Cl)c1	-	RT-Y188L	nucleotide incorporation / radiometric	>2
CCN1c2ncc(CCOc3ccc(C(=O)O)cc3C)cc2-c2nccn2-c2cccnc21	-	RT-K103N Y181C	nucleotide incorporation / radiometric	>2

Fold resistance has wild type as its base. An empty or dashed field is not shown.